Anti-infective test results gathered from many reports (values: NIAID ChemDB through PubChem).

Common to all: whole-cell or culture tests; species: Mycobacterium tuberculosis

An empty or dashed field is not shown. A number after MIC or MFC names an inhibition level or a share of isolates. MIC bound comes from a single tested concentration. Conditions beyond the fields shown may differ between rows. ECn: concentration that inhibits the pathogen or its effect by n%. Percent inhibition refers to the dose given; in toxicity tests it is the harm to the cells. Two numbers with a dash give a range or band.

smiles | dose | read-out | changes | method | strain | result
CCCCCN1C(=O)c2cc(Cl)nnc2Oc2ccc3ccccc3c21 | - | EC50 | - | BACTEC | H37Rv | <12.5 µg/mL
C/C(=N\Nc1nc2ccccc2s1)c1ccc2c(c1)Sc1ccccc1O2 | - | MIC bound | - | BACTEC | H37Rv | ≤12.5 µg/mL
Cc1c[nH]c(C(=O)NN)c1-c1cc2c(-c3ccccc3)nc3ccccc3n2c1 | - | EC50 | - | - | H37Rv | <12.5 µg/mL
CN1CCC(=C2C3=C(CCc4ccccc42)SCC3)CC1 | - | MIC | - | - | H37Ra | 16 µg/mL
CO[C@H]1/C=C/O[C@@]2(C)Oc3c(C)c(O)c4c(O)c(c(/C=N/N5CCN(C/C=C/c6ccccc6)CC5)c(O)c4c3C2=O)NC(=O)/C(C)=C\C=C\[C@H](C)[C@H](O)[C@@H](C)[C@@H](O)[C@@H](C)[C@H](OC(C)=O)[C@@H]1C | - | MBC | - | - | MTB11 | 0.12 µg/mL
CCOc1cc2oc3cc(O)c(CCC(C)C)c(O)c3c(=O)c2c(CCC(C)C)c1OC | - | MIC | - | resazurin | M-3 | 1.56 µg/mL
CN1CCC(=C2c3ccccc3C=Cc3cccnc32)CC1 | - | MIC | - | - | H37Ra | 256 µg/mL
CC(=O)C1=C(O)C(Nc2ccccc2)=CC(=O)C1=Nc1ccccc1 | - | MIC bound | - | BACTEC | H37Rv | ≤128 µg/mL
Cc1ccc(/C=C(\C(N)=O)n2nnc3ccccc32)cc1 | - | EC50 | - | - | H37Rv | >12.5 µg/mL
O=C(NNc1ccccc1)C(O)C(O)C(O)C(O)CO | 12.5 µg/mL | inhibition | - | BACTEC | H37Rv | 9%
CN(C)CCC=C1c2ccccc2CCc2ccccc21 | - | MIC | - | - | H37Ra | 32 µg/mL
CCCOc1cc2oc3cc(O)c(CCC(C)C)c(O)c3c(=O)c2c(CCC(C)C)c1OC | - | MIC | MDR | resazurin | M27 | 3.12 µg/mL
CN[C@@H]1[C@H](O[C@H]2[C@H](O[C@H]3[C@H](O)[C@@H](O)[C@H](N=C(N)N)[C@@H](O)[C@@H]3N=C(N)N)O[C@@H](C)[C@]2(O)C=O)O[C@@H](CO)[C@H](O)[C@H]1O | - | MIC | - | - | H37Rv | 0.4 µg/mL
CC(C)(C)C/C(O)=C/c1nc2ccccc2nc1/C=C(\O)CC(C)(C)C | - | EC50 | - | - | - | >6.25 µg/mL
CCCOc1cc2oc3cc(O)c(CCC(C)C)c(O)c3c(=O)c2c(CCC(C)C)c1C(C)=O | - | MIC | - | resazurin | H37Ra | 0.78 µg/mL
CN(C)CCOC(c1ccc(Cl)cc1)c1ccccn1 | - | MIC | - | - | H37Ra | 128 µg/mL
COc1ccc(/C=C(\C#N)n2nnc3ccccc32)cc1OC | - | EC50 | - | - | H37Rv | >12.5 µg/mL
O=C(CSc1nnc(-c2ccccn2)s1)N/N=c1/scc(-c2cccc(Cl)c2)n1-c1ccccc1 | - | MIC | - | - | H37Rv | >80 µg/mL
O=C(N/N=C/CCc1ccccc1)c1ccncc1 | - | MIC | - | - | - | 0.1 µg/mL
O=NN(CC(=O)NNc1ccccc1)CC(=O)NNc1ccccc1 | 12.5 µg/mL | inhibition | - | BACTEC | H37Rv | 3%
O=C(CSc1nnc(-c2ccccn2)s1)N/N=c1/scc(-c2ccccc2)n1-c1cccc([N+](=O)[O-])c1 | - | MIC | - | - | Clinical isolate 190 | >80 µg/mL
CO[C@@H](C)[C@](O)(C(=O)OCC1=CC[N+]2([O-])CC[C@@H](O)[C@H]12)C(C)C | - | MIC | - | BACTEC | H37Rv | ≥128 µg/mL
NNC(=O)c1ccncc1 | - | MIC | - | - | Clinical isolate 10 | 0.1 µg/mL
O=C(NN=Cc1ccc([N+](=O)[O-])cc1)c1ccncc1 | - | MIC | - | - | - | 0.1 µg/mL
CCOc1ccc2c(c1)[n+]([O-])c(S(=O)(=O)c1ccc(C)cc1)c(N)[n+]2[O-] | - | MIC | - | - | PZA-R | >12.5 µg/mL
CN(C)CCC(c1ccccc1)c1ccccn1 | - | MIC | - | - | H37Ra | >256 µg/mL
COc1cc(/C=N/NC(=O)C2CCNCC2)ccc1O | - | MIC | - | - | - | >40 µg/mL
CC(=O)Oc1cc2oc3cc(O)c(CCC(C)C)c(O)c3c(=O)c2c(CCC(C)C)c1C(C)=O | - | MIC | - | resazurin | H37Ra | 6.25 µg/mL
CCOC(=O)c1[nH]cc(C)c1-c1cc2c(-c3ccccc3)nc3ccccc3n2c1 | - | MIC | - | - | H37Rv | <12.5 µg/mL
CN[C@@H]1[C@H](O[C@H]2[C@H](O[C@H]3[C@H](O)[C@@H](O)[C@H](N=C(N)N)[C@@H](O)[C@@H]3N=C(N)N)O[C@@H](C)[C@]2(O)C=O)O[C@@H](CO)[C@H](O)[C@H]1O | - | MIC | - | - | Clinical isolate 7 | >100 µg/mL
CC(C)(C)c1ccccc1OCCCON1C(N)=NC(N)=NC1(C)C | - | MIC90 | - | resazurin / fluorescence | H37Rv | 0.3 µM
O=C(N/N=C/c1ccc(F)cc1)c1c[nH]c2ccc(Cl)cc2c1=O | - | MIC | - | resazurin | RCMB 010126 | 12.48 µg/mL
N#C/C(=C\c1cccs1)n1nc2ccccc2n1 | - | EC50 | - | - | H37Rv | >12.5 µg/mL
C/C(=N/NC(=O)c1cccnc1)c1ccccc1 | - | MIC | - | - | - | 1 µg/mL
Nc1c(C(=O)O)nnc2cc(Cl)ccc12 | - | MIC bound | - | BACTEC | H37Rv | >12.5 µg/mL
N[C@@H]1CONC1=O | - | MIC | - | - | H37Rv | 10 µg/mL
O=C(Nc1ccccc1)c1ccccc1O | - | MIC | - | - | CNCTC MY 331/8 | 62.5 µM
CC/C=C/[C@H](CC)C/C(=C/[C@@]1(CC)C[C@H](CC)[C@H](CC(=O)O)OO1)CC | 64 µg/mL | inhibition | - | - | - | 78%
CCCCOc1cc2oc3cc(O)c(CCC(C)C)c(O)c3c(=O)c2c(CCC(C)C)c1OC | - | MIC | - | resazurin | H37Ra | 1.56 µg/mL
O=C(N/N=C/c1ccccn1)c1ccncc1 | - | MIC | - | - | - | 0.1 µg/mL
CC(=O)O[C@H]1CC[C@]2(C)C3=C([C@@H](OO)C[C@H]2C1(C)C)[C@]1(C)CC[C@H](C(C)CCCC(C)C)[C@@]1(C)CC3 | - | MIC bound | - | BACTEC | H37Rv | ≤128 µg/mL
COc1ccc(NC(=O)c2ncccc2O)cc1 | - | MIC | - | - | CNCTC MY 331/8 | 125 µM
CC1CCCCN1.CC1CCCCN1C(=S)S | - | MIC | - | - | RMP-R | 1.6 µg/mL
O=C(/C=C1\N[C@H]2CCCC[C@H]2N\C1=C/C(=O)c1ccccc1)c1ccccc1 | - | EC50 | - | - | - | >6.25 µg/mL
O=C(N/N=C/c1ccccc1O)c1ccncc1 | - | MIC | - | - | - | 0.1 µg/mL
N#C/C(=C\c1ccco1)n1nnc2ccccc21 | - | EC50 | - | - | H37Rv | >12.5 µg/mL
CC/C=C/[C@H](CC)C/C(=C/[C@]1(CC)C[C@@](/C=C/C(=O)O)(CC)OO1)CC | 64 µg/mL | inhibition | - | - | - | 72%
CCCCCCN1C(=O)c2cc(Cl)nnc2Oc2ccc3ccccc3c21 | 12.5 µg/mL | inhibition | - | BACTEC | H37Rv | 0%
COc1cccc(/C=N/NC(=O)CNC(=O)Nc2ccc(Cl)c(Cl)c2)c1OC | - | MIC bound | - | BACTEC | H37Rv | >12.5 µg/mL
CC[C@@H](CO)NCCN[C@@H](CC)CO | - | MIC | - | - | L1901 | 1 µg/mL
COc1cccc(/C=N/NC(=O)c2cccnc2)c1 | - | MIC | - | - | - | 0.001 µg/mL
O=C(NCc1cccc(Cl)c1)c1ncccc1S | - | MIC | - | - | CNCTC MY 331/8 | 8 µM
O=c1c2ccccc2c(=O)c2c1ccc1[nH]c3ccccc3n(-c3ccccc3)c12 | 12.5 µg/mL | inhibition | - | BACTEC | H37Rv | -4%
Cc1ccc(-c2cs/c(=N/NC(=O)CSc3nnc(-c4ccccn4)s3)n2-c2ccccc2)cc1 | - | MIC | - | - | Clinical isolate 190 | 40 µg/mL
CCCCCCCC/C=C\CCCCCCC/C=N/NC(=O)c1ccncc1 | - | MIC | - | - | - | 100 µg/mL
O=C(CNC(=O)OCc1ccccc1)NC(CO)C(=O)O | 12.8 µg/mL | inhibition | - | BACTEC | H37Rv | 10%
N#C/C(=C/c1ccc2ccccc2c1)n1nnc2ccccc21 | 12.5 µg/mL | inhibition | - | - | H37Rv | 0%
[N-]=[N+]=N[C@H]1C[C@H](n2ccc(=O)[nH]c2=O)O[C@@H]1COC(c1ccccc1)(c1ccccc1)c1ccccc1 | 12.5 µg/mL | inhibition | - | BACTEC | H37Rv | 48%
COc1cc2oc3cc(OC)c(CCC(C)C)c(O)c3c(=O)c2c(CCC(C)C)c1O | - | MIC | - | resazurin | H37Ra | >200 µg/mL
O=C(/C=C1\N[C@@H]2CCCC[C@H]2N\C1=C/C(=O)c1ccccc1)c1ccccc1 | - | EC50 | - | - | - | >6.25 µg/mL
COC(=O)Nn1c(C)c(C(=O)Nc2ccc(OC)cc2)c(C(=O)OC)c1C | - | MIC bound | - | resazurin | H37Rv | >6.25 µg/mL
CN1CCC[C@@H]1CCO[C@](C)(c1ccccc1)c1ccc(Cl)cc1 | - | MIC | - | - | H37Rv | 16 µg/mL
CC1CN(C(=O)/C=C/C(=O)OC2CCCCC2)CCN1C(=O)/C=C/C(=O)OC1CCCCC1 | - | MIC | - | - | KM-R | 12.5 µg/mL
NC(=O)/C(=C\c1ccc(Br)cc1)n1nnc2ccccc21 | 12.5 µg/mL | inhibition | - | - | H37Rv | 0%
O=C(NCc1ccc(Cl)cc1)c1ncccc1S | - | MIC | - | - | CNCTC MY 331/8 | 8 µM
CCCCCCCCCN1C(=O)c2cc(Cl)nnc2Oc2ccc(Cl)cc21 | - | EC50 | - | BACTEC | H37Rv | <12.5 µg/mL
COc1cc(/C=N/NC(=O)c2c[nH]c3ccc(Cl)cc3c2=O)cc(OC)c1OC | - | MIC | - | resazurin | RCMB 010126 | 6.24 µg/mL
O=C(CSc1nnc(-c2ccccn2)s1)N/N=c1/scc(-c2ccccc2Br)n1-c1ccccc1 | - | MIC | - | - | Clinical isolate 190 | >80 µg/mL
CCn1c2ccc(N)cc2c2c(N)c(-n3cccc3)ccc21 | - | MIC | - | BACTEC | H37Rv | 6.25 µg/mL
O=C(CSc1nnc(-c2ccccn2)s1)N/N=c1/scc(-c2ccccc2)n1-c1ccccc1 | - | MIC | - | - | Clinical isolate 331 | 80 µg/mL
CCc1ccccc1OCCCON1C(N)=NC(N)=NC1(C)C | - | MIC90 | - | resazurin / fluorescence | H37Rv | 0.5 µM
COc1cc2oc3cc(OC)c(C(C)=O)c(CCC(C)C)c3c(=O)c2c(O)c1CCC(C)C | - | MIC | - | resazurin | H37Ra | >200 µg/mL
O=C(CSc1nnc(-c2ccccn2)s1)N/N=c1/scc(-c2ccccc2)n1-c1ccc(Cl)cc1 | - | MIC | - | - | Clinical isolate 180 | 40 µg/mL
O=c1[nH][nH]c(=O)c2c1nc(SCc1c(Cl)cccc1Cl)n2Cc1ccccc1 | 12.5 µg/mL | inhibition | - | BACTEC | H37Rv | 0%
CC1(C)N=C(N)N=C(N)N1OCCCOc1cc(Cl)c(Cl)cc1Cl | - | MIC90 | - | resazurin / fluorescence | H37Rv | 1–2 µM
N#C/C(=C\c1ccc2c(c1)OCO2)n1nc2ccccc2n1 | - | EC50 | - | - | H37Rv | >12.5 µg/mL
Cc1c[nH]c(C(=O)O)c1-c1cc2c(-c3ccccc3)nc3ccccc3n2c1 | 12.5 µg/mL | inhibition | - | - | H37Rv | 45%
Cc1nc2nc(C)n(CCN3CCOCC3)c(=O)c2c(-c2cccc([N+](=O)[O-])c2)c1C(=O)CCCCCCCCCCN1CCC(c2ccccc2)(c2ccccc2)CC1 | - | MIC | - | resazurin | H37Rv | 3.13 µg/mL
CN(C)CCOC(C)(c1ccccc1)c1ccc(Cl)cc1 | - | MIC | - | - | H37Ra | 16 µg/mL
NNC(=O)c1ccncc1 | - | MIC | - | resazurin | M11 | 2 µg/mL
Cc1ccc(NC(=O)c2ncccc2O)cc1 | - | MIC | - | - | CNCTC MY 331/8 | 125 µM
CC1(C)N=C(N)N=C(N)N1OCCSCc1cc(Cl)sc1Cl | - | MIC90 | - | resazurin / fluorescence | H37Rv | 0.5 µM
CO[C@@]12[C@H](COC(N)=O)C3=C(C(=O)C(C)=C(N)C3=O)N1C[C@H]1[C@@H]2N1C(=O)C1N2C(=O)[C@@H](NC(=O)Cc3ccccc3)[C@H]2SC1(C)C | 12.5 µg/mL | inhibition | - | BACTEC | H37Rv | 100%
Cc1ccc(/C=C(\C(N)=O)n2nc3ccccc3n2)cc1 | - | EC50 | - | - | H37Rv | >12.5 µg/mL
O=C1c2cc(Cl)nnc2Oc2ccc(Cl)cc2N1CCCC1CCCCC1 | - | EC50 | - | BACTEC | H37Rv | <12.5 µg/mL
CN(C)CCNC(=O)c1cccc2nc3c(ccc4ccccc43)nc12.Cl | - | MIC | - | BACTEC | H37Rv | 3.13 µg/mL
CC(C)CCC[C@@H](C)[C@H]1CC[C@H]2[C@@H]3CC=C4C/C(=N/NC(=O)c5ccncc5)CC[C@]4(C)[C@H]3CC[C@]12C | - | MIC | - | - | - | 0.001 µg/mL

Again, the opening 6 rows:

smiles	dose	read-out	changes	method	strain	result
CCCCCN1C(=O)c2cc(Cl)nnc2Oc2ccc3ccccc3c21	-	EC50	-	BACTEC	H37Rv	<12.5 µg/mL
C/C(=N\Nc1nc2ccccc2s1)c1ccc2c(c1)Sc1ccccc1O2	-	MIC bound	-	BACTEC	H37Rv	≤12.5 µg/mL
Cc1c[nH]c(C(=O)NN)c1-c1cc2c(-c3ccccc3)nc3ccccc3n2c1	-	EC50	-	-	H37Rv	<12.5 µg/mL
CN1CCC(=C2C3=C(CCc4ccccc42)SCC3)CC1	-	MIC	-	-	H37Ra	16 µg/mL
CO[C@H]1/C=C/O[C@@]2(C)Oc3c(C)c(O)c4c(O)c(c(/C=N/N5CCN(C/C=C/c6ccccc6)CC5)c(O)c4c3C2=O)NC(=O)/C(C)=C\C=C\[C@H](C)[C@H](O)[C@@H](C)[C@@H](O)[C@@H](C)[C@H](OC(C)=O)[C@@H]1C	-	MBC	-	-	MTB11	0.12 µg/mL
CCOc1cc2oc3cc(O)c(CCC(C)C)c(O)c3c(=O)c2c(CCC(C)C)c1OC	-	MIC	-	resazurin	M-3	1.56 µg/mL